Data as given in article PMC12153317 (mBio, 2025).

Key:
[1] = molecular target: H3 A/Aichi/02/1968(X31) full-length HA ectodomain (FLsE) trimer, His6-tagged (Influenza A virus …, UniProt P03437); assay: BLI
[2] = molecular target: full-length, membrane-anchored A/Aichi/02/1968(H3N2)(X-31) HA on 293F cells (Influenza A virus …, UniProt P03437); assay: flow cytometry on cells

B1: CR8020 Fab (Fab, V domains shown)
VH: QVQLQQSGAEVKTPGASVKVSCKASGYTFTSFGVSWIRQAPGQGLEWIGWISAYNGDTYYAQKFQARVTMTTDTSTTTAYMEMRSLRSDDTAVYYCAREPPLFYSSWSLDNWGQGTLVTVSS
VL: EIVMTQSPGTLSLSPGERATLSCRASQSVSMNYLAWFQQKPGQAPRLLIYGASRRATGIPDRISGSGSGTDFTLTISRLEPADFAVYYCQQYGTSPRTFGQGAKVEIK
notes: source: 293F, transient transfection, purified (TALON resin, Superdex 200)
binding result [1]: binds

B2: S8V1-157 recombinant human IgG1 (antibody, V domains shown)
VH: EVQLVQSGAEVKKPGASVKVSCKVSGYRLTALSMHWVRQAPGKGLEWMGGFDPEEDETIYAQNFQGRVTLTEDTSTDTVYMELSSLRSEDTGVYYCATLMGANPFDYWGQGTLIIVSG
VL: not shown
notes: human IgG1; also called rIgG; source: 293F, transient transfection, purified (Protein A agarose); copies: 2 + 2
binding result [2]: binds

B3: HC19 recombinant human IgG (antibody, V domains shown)
VH: QVQLKESGPGLVAPSQSLSITCTVSGFLLISNGVHWVRQPPGKGLEWLGVIWAGGNTNYNSALMSRVSISKDNSKSQVFLKMKSLQTDDTAMYYCARDFYDYDVFYYAMDYWGQGTSVTVSS
VL: QAVVTQESALTTSPGETVTLTCRSSTGAVTTSNYANWVQEKPDHLFTGLIGGTNNRAPGVPARFSGSLIGDKAALTITGAQTEDEAIYFCALWYSNHWVFGGGTKLTVL
notes: copies: 2 + 2
binding result [2]: binds

B4: S5V2-29 recombinant human IgG (antibody, V domains shown)
VH: QVQLQESGPGLVKPSETLSLTCTVSGGSVSSNIYYWSWIRQTPGKGLEWLGYFYHSGSSNYNPSLKSRVTISGDMSKNQFSLKLKSVTAADTAIYYCARGGVENLMLVAVIQEMWYFDLWGRGTLVTVSG
VL: DIQMTQTPSSLSASVGDRVTITCRASQSIGASLNWYQQKPGEAPKFLIYAASNLQSGVPSRFSGSGSGTDFTLTISSLQPEDFATYYCQQQGTFGQGTKLEIK
notes: copies: 2 + 2
binding result [2]: binds
